Compound potency records, mixed from different reports. Data source: NIAID ChemDB in PubChem.

Shared fields: host cell toxicity; cells: H9; endpoint: CC50

Neighbouring rows are from separate reports.

SMILES,method,result
CC(=O)O[C@@H]1[C@H](OC(=O)C23CCC(C)(C(=O)O2)C3(C)C)c2c(ccc3c(=O)cc(C)oc23)OC1(C)C,-,>50 µM
Nc1ccn([C@@H]2O[C@H](CO)[C@@H](O)C2(F)F)c(=O)n1,-,0.01 µM
CC(C)[C@H](NC(=O)OCc1ccccn1)C(=O)N[C@@H](Cc1ccccc1)[C@@H](O)[C@H](O)[C@H](Cc1ccccc1)NC(=O)[C@@H](NC(=O)OCc1ccccn1)C(C)C,trypan blue,>100 µM
COc1cc2c(cc1OC)[C@@H](Cc1ccc(OC)c(Oc3cc4c(cc3OC)CCN(C)[C@@H]4Cc3ccc(O)cc3)c1)N(C)CC2,cell count,6.87 µg/mL
CC(=O)N[C@H]1CCc2cc(O)c(O)c(O)c2-c2ccc(O)c(=O)cc21,-,1.2 µM
CC(C)[C@H](NC(=O)N(C)Cc1ccccn1)C(=O)N[C@@H](Cc1ccccc1)[C@H](O)[C@H](O)[C@H](Cc1ccccc1)NC(=O)[C@@H](NC(=O)N(C)Cc1ccccn1)C(C)C,trypan blue,>100 µM
N[C@H]1CCc2cc(O)c(O)c(O)c2-c2ccc(O)c(=O)cc21,-,50 µM
COc1cc2c(cc1OCc1ccccc1)C(Cc1ccc(Br)cc1)N(Cc1ccccc1)CC2,cell count,7.5 µg/mL
Nc1ccn([C@@H]2CS[C@H](CO)O2)c(=O)n1,-,>500 µM
COc1c(O)cc2c3c1-c1cc(O)ccc1C[C@H]3N(C)CC2,cell count,35.2 µg/mL
O=C(OCC1O[C@@H](O)C(O)(COC(=O)c2cc(O)c(O)c(O)c2)C1OC(=O)c1cc(O)c(O)c(O)c1)c1cc(O)c(O)c(O)c1,-,40 µM
CC(C)[C@H](NC(=O)NCc1ccccn1)C(=O)N[C@@H](Cc1ccccc1)C(O)[C@H](Cc1ccccc1)NC(=O)[C@@H](NC(=O)NCc1ccccn1)C(C)C,trypan blue,>100 µM
CN1CCc2cc3c(c4c2[C@H]1Cc1ccc(O)cc1-4)OCO3,cell count,7.8 µg/mL
COc1cc2c(c(OC)c1OC)-c1ccc(O)c(=O)cc1[C@@H](NC(=O)C(F)(F)F)CC2,-,0.2 µM
Cc1cn([C@H]2C[C@H](N=[N+]=[N-])[C@@H](CO)O2)c(=O)[nH]c1=O,-,500 µg/mL
COc1cc2c(c(OC)c1O)-c1ccc(SC)c(=O)cc1[C@@H](N)CC2,-,1.4 µM
Nc1ccc2sc(-c3ccccc3)cc(=O)c2c1,-,7.5 µg/mL
CC(C)c1cc(=O)c2ccc3c(c2o1)[C@@H](OC(=O)C12CCC(C)(C(=O)O1)C2(C)C)[C@@H](OC(=O)C12CCC(C)(C(=O)O1)C2(C)C)C(C)(C)O3,-,33.4 µM
O=C1OCC2OC(=O)c3cc(O)c(O)c(O)c3-c3c(O)c(O)c(O)c4c3C(=O)OC(C2OC(=O)c2cc(O)c(O)c(O)c2-c2c1cc(O)c(O)c2O)C1OC(=O)c2c-4c(O)c(O)c(O)c2C1c1c(O)cc(O)c2c1O[C@H](c1ccc(O)c(O)c1)C(O)C2,-,15 µM
O=C1OC(C2OC(=O)c3cc(O)c(O)c(O)c3-c3c(O)c(O)c4oc(=O)c5c(c(O)c(O)c6oc(=O)c3c4c65)-c3c(cc(O)c(O)c3O)C(=O)OCC2O)C2OC(=O)c3c(c(O)c(O)c(O)c3C2O)-c2c1cc(O)c(O)c2O,-,>5 µg/mL
CC(C)[C@H](NC(=O)OCc1ccccc1)C(=O)N[C@@H](Cc1ccccc1)[C@H](O)[C@H](Cc1ccccc1)NC(=O)[C@@H](NC(=O)c1cccnc1)C(C)C,trypan blue,>100 µM
COc1cc2c(c(OC)c1O)-c1ccc(SC)c(=O)cc1[C@@H](NC(C)=O)CC2,-,0.052 µM
O=C(O[C@@H]1O[C@@H]2COC(=O)c3cc(O)c(O)c(O)c3-c3c(cc(O)c(O)c3O)C(=O)O[C@H]([C@H]1O)[C@@H]2O)c1cc(O)c(O)c(O)c1,-,15 µM
O=c1ccc2cc3ccoc3cc2o1,-,19.1 µg/mL
O=C(O[C@@H]1OC2CC(=O)c3cc(O)c(O)c(O)c3-c3c(cc(O)c(O)c3O)C(=O)OC2C(O)C1O)c1cc(O)c(O)c(O)c1,-,62 µM
Nc1nc2c(ncn2[C@@H]2O[C@H](CO)[C@@H](O)[C@H]2O)c(=O)o1,MTT,>500 µg/mL
COc1cc2c(c(OC)c1OC)-c1ccc(N(C)C)c(=O)cc1[C@@H](N)CC2,-,1.6 µM
Nc1nc2c(ncn2[C@H]2C=C[C@@H](CO)C2)c(=O)o1,MTT,>500 µg/mL
O=C1OC2[C@@H](CO)O[C@@H](OC(=O)c3cc(O)c(O)c(O)c3)[C@H](OC(=O)c3cc(O)c(O)c4c3[C@@H]3C1=CC(=O)C(O)(O)C3(O)O4)[C@H]2O,-,70 µM
COc1cc2c(c(OC)c1OC)-c1ccc(O)c(=O)cc1[C@@H](N)CC2,-,1.2 µM
Oc1ccc(C[C@@H]2NCCc3cc(O)c(O)cc32)cc1,cell count,20 µg/mL
Nc1ccn([C@@H]2O[C@H](CO)[C@@H](O)[C@@H]2O)c(=O)n1,-,0.1 µM
Nc1nc2c(ncn2[C@H]2C=C[C@@H](CO)O2)c(=O)o1,MTT,>500 µg/mL
CCOCc1cc(=O)c2ccc3c(c2o1)[C@@H](OC(=O)C12CCC(C)(C(=O)O1)C2(C)C)[C@@H](OC(=O)C(C)C)C(C)(C)O3,-,>43.9 µM
CC(=O)Oc1ccc2c(=O)cc(-c3ccccc3)sc2c1,-,45 µg/mL
CC(C)[C@H](NC(=O)OCc1ccccc1)C(=O)N[C@@H](Cc1ccccc1)[C@H](O)[C@@H](O)[C@H](Cc1ccccc1)NC(=O)[C@@H](NC(=O)OCc1ccccc1)C(C)C,trypan blue,>100 µM
CCc1cc(=O)c2ccc3c(c2o1)[C@@H](OC(=O)C12CCC(C)(C(=O)O1)C2(C)C)[C@@H](OC(=O)C(C)C)C(C)(C)O3,-,>46.3 µM
O=c1cc(-c2ccccc2)sc2cc(O)c(O)cc12,-,1.8 µg/mL

2 of the rows above, restated:

SMILES,method,result
O=C1OC(C2OC(=O)c3cc(O)c(O)c(O)c3-c3c(O)c(O)c4oc(=O)c5c(c(O)c(O)c6oc(=O)c3c4c65)-c3c(cc(O)c(O)c3O)C(=O)OCC2O)C2OC(=O)c3c(c(O)c(O)c(O)c3C2O)-c2c1cc(O)c(O)c2O,-,>5 µg/mL
CC(C)[C@H](NC(=O)OCc1ccccc1)C(=O)N[C@@H](Cc1ccccc1)[C@H](O)[C@H](Cc1ccccc1)NC(=O)[C@@H](NC(=O)c1cccnc1)C(C)C,trypan blue,>100 µM

Blank or dashed fields: not listed here. CCn is the concentration with n% toxicity to the cells.